Anti-infective test results gathered from many reports (values: NIAID ChemDB through PubChem).

All rows: growth or infection tests; species: HIV-1; method: antigen; measure: EC50

ECn is the concentration giving n% inhibition of infection, replication or growth. Conditions beyond the fields shown may differ between rows.

CC(C)Nc1cccnc1N1CCN(C(=O)c2cc3cc(NS(C)(=O)=O)ccc3[nH]2)CC1 ; cells: MT-4 ; strain: HXB2 ; value: ~0.02 µM
[Li+] ; cells: MT-4 ; strain: IIIB ; value: >1000 µg/mL
Cc1cn([C@H]2C[C@H](F)[C@@H](CO)O2)c(=O)[nH]c1=O ; changes: RT-Q151M ; cells: PBMC ; strain: A(RT-Q151M) ; value: 0.0027 µM
CC(C)(C)OC(=O)N[C@@H](Cc1ccc(OCCN2CCOCC2)cc1)[C@@H](O)C[C@@H](Cc1ccccc1)C(=O)N[C@H]1c2ccccc2C[C@H]1O ; cells: H9 ; strain: IIIB ; value: <0.05 µM
CC[C@H](C)[C@H](NC(=O)[C@H](C/C=C/c1ccccc1)C[C@H](O)[C@H](Cc1ccccc1)NC(=O)OC(C)(C)C)C(=O)NCc1nc2ccccc2[nH]1 ; cells: H9 ; strain: RF ; value: <0.012 µM
Cc1cn([C@@H]2O[C@H](COP3(=O)OCc4ccccc4O3)[C@@]3(N=[N+]=[N-])CO[C@@H]23)c(=O)[nH]c1=O ; cells: MT-4 ; strain: IIIB ; value: >300 µM
CC[C@H](C)[C@H](NC(=O)[C@H](Cc1ccccc1)C[C@H](O)[C@H](Cc1ccccc1)NC(=O)OC(C)(C)C)C(=O)NCc1ccccc1 ; cells: H9 ; strain: IIIB ; value: <1.5 µM
CN(C)CCOc1ccc(C[C@H](C[C@H](O)[C@H](Cc2ccccc2)NC(=O)OC(C)(C)C)C(=O)N[C@H]2c3ccccc3C[C@H]2O)cc1 ; cells: H9 ; strain: IIIB ; value: <0.4 µM
COC(=O)c1cc2c(c(OC)c1-c1ccc(N(C)C)cc1)OCO2 ; changes: V108I ; cells: C8166 ; strain: NL4-3 ; value: 13.01 µM
CC(C)(C)OC(=O)N[C@@H](Cc1ccccc1)[C@@H](O)C[C@@H](Cc1ccc(OCCN2CCOCC2)cc1)C(=O)N[C@H]1c2ccccc2C[C@H]1O ; cells: MT-4 ; strain: RF ; value: <0.025 µM
O=C1CN=C(c2ccc[nH]2)c2cc(Cl)ccc2N1 ; cells: CEM ; strain: IIIB/LAI ; value: 0.4 µM
Cc1cn([C@@H]2O[C@@]3(CO)CO[C@@H]2[C@@H]3N=[N+]=[N-])c(=O)[nH]c1=O ; cells: MT-4 ; strain: IIIB ; value: >300 µM
CC(C)(C)OC(=O)N[C@@H](Cc1ccc(O)cc1)[C@@H](O)C[C@@H](Cc1ccccc1)C(=O)N[C@H]1c2ccccc2C[C@H]1O ; cells: H9 ; strain: IIIB ; value: <0.05 µM
Cc1cn([C@H]2C[C@H](N=[N+]=[N-])[C@@H](COP(=O)(O)C(=O)O)O2)c(=O)[nH]c1=O ; cells: MT-4 ; strain: SCV 4005 ; value: 0.016 µM
Cc1cn(C2O[C@@]3(CO)COC2C3)c(=O)[nH]c1=O ; cells: MT-4 ; strain: IIIB ; value: >300 µM
c1cc(CN2CCCNCCNCCCNCC2)ccc1CN1CCCNCCNCCCNCC1 ; cells: PBMC ; strain: SF162 R5 ; value: >25 µg/mL
COC(=O)C(C)NP(=O)(OCC12CO[C@@H]([C@H](n3cnc4c(N)ncnc43)O1)[C@@H]2N=[N+]=[N-])Oc1ccccc1 ; cells: MT-4 ; strain: IIIB ; value: >300 µM
CC[C@H](C)[C@H](NC(=O)[C@H](Cc1ccccc1)C[C@H](O)[C@H](Cc1ccccc1)NC(=O)OC(C)(C)C)C(=O)NCC(O)CO ; cells: H9 ; strain: IIIB ; value: <1.5 µM